# Structure probing of HIV-1 leader RNA with DMS

RNA: 5' end of the HIV-1 NL4-3 genome, made in vitro. Positions 1-437 read:
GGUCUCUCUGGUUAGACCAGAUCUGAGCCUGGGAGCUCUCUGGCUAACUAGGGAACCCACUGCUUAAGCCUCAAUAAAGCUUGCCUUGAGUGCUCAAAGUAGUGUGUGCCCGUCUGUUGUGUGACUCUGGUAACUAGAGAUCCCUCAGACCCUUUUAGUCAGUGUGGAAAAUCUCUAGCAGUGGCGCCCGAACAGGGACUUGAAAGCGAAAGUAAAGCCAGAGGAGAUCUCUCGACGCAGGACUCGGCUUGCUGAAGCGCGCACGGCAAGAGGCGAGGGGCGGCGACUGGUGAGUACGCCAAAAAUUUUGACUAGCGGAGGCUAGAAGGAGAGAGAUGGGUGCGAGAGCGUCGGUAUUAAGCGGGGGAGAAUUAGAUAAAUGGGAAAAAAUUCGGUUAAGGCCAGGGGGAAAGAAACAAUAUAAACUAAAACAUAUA

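Randomly mutated transcripts starting with one, two or three G (1G, 2G, 3G), capped or uncapped, were folded for 30 min at 37 °C. High salt was 300 mM KCl and 5 mM MgCl2, low salt 40 mM KCl and 0.1 mM MgCl2; monomer and dimer were parted on a native gel. Each band was probed in the gel with DMS (170 mM, 15 min, 37 °C), with ethanol as control, and sequenced.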

Scale: normalised reactivity, A and C only; low values point to paired or protected bases, higher values to unpaired ones. One numbering serves 1G, 2G and 3G. A position is written with its base.

* C343: 3G uncapped high-salt dimer 0.38; 1G capped low-salt dimer 0.29; 2G uncapped high-salt dimer 0.33; 2G capped low-salt monomer 0.49
* A345: 3G uncapped high-salt dimer 1.21; 1G capped low-salt dimer 1.28; 2G uncapped high-salt dimer 1.29; 2G capped low-salt monomer 1.14
* A347: 3G uncapped high-salt dimer 0.16; 1G capped low-salt dimer 0.29; 2G uncapped high-salt dimer 0.31; 2G capped low-salt monomer 0.22
* C349: 3G uncapped high-salt dimer 0.26; 1G capped low-salt dimer 0.30; 2G uncapped high-salt dimer 0.34; 2G capped low-salt monomer 0.33
* C352: 3G uncapped high-salt dimer 0.37; 1G capped low-salt dimer 0.46; 2G uncapped high-salt dimer 0.37; 2G capped low-salt monomer 0.38
* A356: 3G uncapped high-salt dimer 0.98; 1G capped low-salt dimer 1.01; 2G uncapped high-salt dimer 0.90; 2G capped low-salt monomer 0.96
* A359: 3G uncapped high-salt dimer 0.48; 1G capped low-salt dimer 0.52; 2G uncapped high-salt dimer 0.64; 2G capped low-salt monomer 0.46
* A360: 3G uncapped high-salt dimer 0.50; 1G capped low-salt dimer 0.55; 2G uncapped high-salt dimer 0.65; 2G capped low-salt monomer 0.46
* C362: 3G uncapped high-salt dimer 0.38; 1G capped low-salt dimer 0.34; 2G uncapped high-salt dimer 0.37; 2G capped low-salt monomer 0.41
* A368: 3G uncapped high-salt dimer 0.81; 1G capped low-salt dimer 0.85; 2G uncapped high-salt dimer 0.72; 2G capped low-salt monomer 0.90
* A370: 3G uncapped high-salt dimer 0.47; 1G capped low-salt dimer 0.51; 2G uncapped high-salt dimer 0.53; 2G capped low-salt monomer 0.50
* A371: 3G uncapped high-salt dimer 0.94; 1G capped low-salt dimer 0.94; 2G uncapped high-salt dimer 0.89; 2G capped low-salt monomer 0.94
* A374: 3G uncapped high-salt dimer 0.40; 1G capped low-salt dimer 0.51; 2G uncapped high-salt dimer 0.56; 2G capped low-salt monomer 0.42
* A376: 3G uncapped high-salt dimer 0.69; 1G capped low-salt dimer 0.76; 2G uncapped high-salt dimer 0.76; 2G capped low-salt monomer 0.70
* A378: 3G uncapped high-salt dimer 0.21; 1G capped low-salt dimer 0.21; 2G uncapped high-salt dimer 0.20; 2G capped low-salt monomer 0.21
* A379: 3G uncapped high-salt dimer 0.55; 1G capped low-salt dimer 0.59; 2G uncapped high-salt dimer 0.61; 2G capped low-salt monomer 0.57
* A380: 3G uncapped high-salt dimer 0.78; 1G capped low-salt dimer 0.84; 2G uncapped high-salt dimer 0.80; 2G capped low-salt monomer 0.80
* A385: 3G uncapped high-salt dimer 0.53; 1G capped low-salt dimer 0.54; 2G uncapped high-salt dimer 0.51; 2G capped low-salt monomer 0.52
* A386: 3G uncapped high-salt dimer 1.33; 1G capped low-salt dimer 1.34; 2G uncapped high-salt dimer 1.21; 2G capped low-salt monomer 1.30
* A387: 3G uncapped high-salt dimer 0.22; 1G capped low-salt dimer 0.24; 2G uncapped high-salt dimer 0.23; 2G capped low-salt monomer 0.23
* A388: 3G uncapped high-salt dimer 0.06; 1G capped low-salt dimer 0.09; 2G uncapped high-salt dimer 0.10; 2G capped low-salt monomer 0.07
* A389: 3G uncapped high-salt dimer 0.12; 1G capped low-salt dimer 0.19; 2G uncapped high-salt dimer 0.23; 2G capped low-salt monomer 0.14
* A390: 3G uncapped high-salt dimer 0.90; 1G capped low-salt dimer 0.89; 2G uncapped high-salt dimer 0.86; 2G capped low-salt monomer 0.92
* C393: 3G uncapped high-salt dimer 0.57; 1G capped low-salt dimer 0.65; 2G uncapped high-salt dimer 0.60; 2G capped low-salt monomer 0.61
* A398: 3G uncapped high-salt dimer 0.15; 1G capped low-salt dimer 0.27; 2G uncapped high-salt dimer 0.24; 2G capped low-salt monomer 0.18
* A399: 3G uncapped high-salt dimer 0.20; 1G capped low-salt dimer 0.40; 2G uncapped high-salt dimer 0.28; 2G capped low-salt monomer 0.23
* C402: 3G uncapped high-salt dimer 0.03; 1G capped low-salt dimer 0.05; 2G uncapped high-salt dimer 0.04; 2G capped low-salt monomer 0.03
* C403: 3G uncapped high-salt dimer 0.03; 1G capped low-salt dimer 0.05; 2G uncapped high-salt dimer 0.03; 2G capped low-salt monomer 0.03
* A404: 3G uncapped high-salt dimer 0.27; 1G capped low-salt dimer 0.26; 2G uncapped high-salt dimer 0.28; 2G capped low-salt monomer 0.21
* A410: 3G uncapped high-salt dimer 0.40; 1G capped low-salt dimer 0.37; 2G uncapped high-salt dimer 0.44; 2G capped low-salt monomer 0.42

The last 2 entries again:

position,3G uncapped high-salt dimer,1G capped low-salt dimer,2G uncapped high-salt dimer,2G capped low-salt monomer
A404,0.27,0.26,0.28,0.21
A410,0.40,0.37,0.44,0.42

From the data files of Ye et al. 2022, doi:10.1038/s41594-022-00746-2.